Experimental findings from US9198845B2, “Glutamine derivatives as deodorants” (Givaudan S.A., priority 2010, dated 2015) are described below.

This series has as its system Corynebacterium Ax 20. The series can be described thus: Cleavage of the synthetic compound by the bacterial enzymes (release of 2-ethyl-hexanol or 2-ethyl-hexylamine). The class given is cell-based, Corynebacterium glaucum. To be noted: for cleavage by the bacteria: conclusion from the data in Table 2; for Release of 2-ethyl-hexanol or 2-ethyl-hexylamine: 2-ethyl-hexylamine for Ia, 2-ethyl-hexanol for II, b.d. = below detection limit.

Setting [1] is: preincubation 0.5 h, 10 ppm test compound.
[2] abbreviates: preincubation 0.5 h, 100 ppm test compound.
Setting [3] is: preincubation 0.5 h, 500 ppm test compound.
[4] abbreviates: preincubation 0.5 h, 1000 ppm test compound.
Setting [5] is: preincubation 4 h, 10 ppm test compound.
[6] abbreviates: preincubation 4 h, 100 ppm test compound.
Where [7] appears, read: preincubation 4 h, 500 ppm test compound.
[8] abbreviates: preincubation 4 h, 1000 ppm test compound.
[9] abbreviates: preincubation 8 h, 10 ppm test compound.
[10] abbreviates: preincubation 8 h, 100 ppm test compound.
Where [11] appears, read: preincubation 8 h, 500 ppm test compound.
Where [12] appears, read: preincubation 8 h, 1000 ppm test compound.
Setting [13] is: preincubation 24 h, 10 ppm test compound.
Setting [14] is: preincubation 24 h, 100 ppm test compound.
[15] abbreviates: preincubation 24 h, 500 ppm test compound.
Setting [16] is: preincubation 24 h, 1000 ppm test compound.

On to `CCCCC(CC)COC(=O)N[C@@H](CCC(N)=O)C(=O)O` (stereo partly shown) [Compound II, reference compound], for which the “cleavage by the bacteria” value is listed as “cleaved by the bacteria”. The “Release of 2-ethyl-hexanol or 2-ethyl-hexylamine” value (shortened to “Release”) under setting [1] came out at 3.9 ppm. Besides, the “Release” value under setting [2] is on record as 26.6 ppm. Further, the “Release” value under setting [3] was 55.6 ppm. Also, the “Release” value under setting [4] came out at 78.3 ppm. Further, the “Release” value under setting [5] was determined as 3.1 ppm. In addition, the “Release” value under setting [6] was determined as 29.8 ppm. For the same compound, the “Release” value under setting [7] came out at 115.2 ppm. Further, under setting [8], the “Release” value worked out at 177.3 ppm. Moreover, under setting [9], the “Release” value was 3.1 ppm. Besides, under setting [10], the “Release” value is on record as 27.6 ppm. Under setting [11], the “Release” value is 152.3 ppm. The “Release” value under setting [12] is 288.2 ppm. Moreover, under setting [13], the “Release” value is reported as 2.3 ppm. For the same compound, the “Release” value under setting [14] is 17.5 ppm. For the same compound, the “Release” value under setting [15] was found to be 89.5 ppm. In addition, the “Release” value under setting [16] is on record as 176.0 ppm.
For the compound `CCCCC(CC)CNC(=O)N[C@@H](CCC(N)=O)C(=O)O` (stereo partly drawn) [Compound Ia, N2-[(2-ethylhexylamino)carbonyl]-L-glutamine], the “cleavage by the bacteria” value is given as “stable”. Moreover, the “Release” value under setting [1] is reported as “b.d”. In addition, the “Release” value under setting [2] is on record as “b.d”. The “Release” value under setting [3] is “b.d”. Besides, the “Release” value under setting [4] was “b.d”. In addition, the “Release” value under setting [5] is given as “b.d”. Besides, under setting [6], the “Release” value is listed as “b.d”. Under setting [7], the “Release” value is “b.d”. Under setting [8], the “Release” value is reported as “b.d”. The “Release” value under setting [9] was “b.d”. Further, under setting [10], the “Release” value was “b.d”. Also, the “Release” value under setting [11] is on record as “b.d”. Besides, under setting [12], the “Release” value was “b.d”. Further, the “Release” value under setting [13] is “b.d”. Further, the “Release” value under setting [14] is listed as “b.d”. The “Release” value under setting [15] was “b.d”. Under setting [16], the “Release” value is reported as “b.d”.
